Measured values published in publication PMC9603178, “Human Claudin-Derived Peptides Block the Membrane Fusion Process of Zika Virus and Are Broad Flavivirus Inhibitors” (Microbiology Spectrum, 2022).
Where no end group is shown, it is not given here.

System: ZIKV
Test: RNase A protection assay
Parameters: species or system Zika virus
Settings: then RNase A 1 h

## Triton X-100 [reference compound]
1% detergent for 1 h, control
  viral RNA upon RNase A treatment: degraded

## MANAGLQLLGFILAFLGW [CL1.1]
10 μM for 1 h, RT-qPCR
  amount of viral RNA after RNase A treatment: identical to the untreated virus
